Columns and labels:
Haemonchus contortus L3 = test: Haemonchus contortus, Larvae Stage 3 (HcL3) In Vitro Assay; conditions: Minimal Effective Concentration whereby worm motility is inhibited by approximately 70%; 96 hours, 37° C.; tested 0.001-100 μM
Method: Haemonchus contortus, Larvae Stage 3 (HcL3) In Vitro Assay
The Haemonchus contortus L3 strain was obtained from the University of Georgia and is a relatively recent multiple-resistant field isolate (International Journal for Parasitology 37 (2007) 795-804). Compounds were dissolved in DMSO to give an initial concentration of 30 mM. The stock concentration was subsequently titrated in basal media to give an eleven point half-log concentration curve for testing. Following the serial dilution, 250 nl of each compound solution was transferred to an assay plate (384-well) whereby 25 μL of exsheathed worms (˜100 larvae/well) were subsequently added. The final compound concentrations in the 384-well plate following worm addition ranged from 0.001-100 μM. Assay plates were incubated at 37° C. and observed at 96 hours for drug effect. Endpoint data (Table 2, HcL3) are recorded as a Minimal Effective Concentration (MEC) whereby worm motility is inhibited by approximately 70%.

[1] = tested on: Dirofilaria immitis microfilariae; test: Dirofilaria immitis, Microfilariae (DiMF) In Vitro Assay; conditions: MEC, decrease in microfilariae motility by visual assessment; 72 hours; curve starting at 100 μM
Method: Dirofilaria immitis, Microfilariae (DiMF) In Vitro Assay
Compounds were initially dissolved in DMSO. The stock concentration was subsequently diluted in basal media and serially diluted to give a concentration response curve starting at 100 μM (11 total concentrations). Following the serial dilution, compound solution was transferred to an assay plate (384-well) where D.i. microfilariae (˜200/well) that have been purified from microfilaremic canine blood were subsequently added. […] Each compound was evaluated for decrease in microfilariae motility by subjective visual assessment and endpoint data were recorded as minimally effective dose (MEC) in μM following the incubation period.

| SMILES | HcL3 MEC (Haemonchus contortus L3) [µM] | Di MF [1] [µM] |
| --- | --- | --- |
| O=C(NCc1ccnc(Cl)c1)N1CC2(CCN(Cc3ccc4cc(F)ccc4n3)CC2)c2c1ccc1sncc21 | >100 | 10 |
| O=C(NCc1ccnc(Cl)c1)N1CC2(CCN(C/C=C/c3ccc(C(F)(F)F)cn3)CC2)c2c1ccc1sncc21 | >100 | 33 |
| O=C(NCc1ccnc(Cl)c1)N1CC2(CCN(C/C=C/c3ccc(F)cc3)CC2)c2c1ccc1sncc21 | >100 | 10 |

From patent US20160296499A1, “Spiroindoline Antiparasitic Derivatives” (ZOETIS SERVICES LLC, priority 2013, published 2016)
